{"source": "PubChem BioAssay AID602405", "about": "(Broad Institute, 2012)", "note": "This is a selection; strong and weak results do not stand in their true shares. The source made the active and inactive calls. No stated cut-off is given here; in the data, active means inhibition above about 16% (passing the limit was not always enough); inconclusive means no clear call, values can overlap the other calls; inactive means below that.", "data": [{"tested_on": "UDP-N-acetylbacillosamine N-acetyltransferase PglD (Campylobacter jejuni)", "assay": "C. jejuni PglD acetyltransferase inhibitors, primary screen, biochemical, DTNB colorimetric, single point (AID 602405)", "conditions": "purified PglD enzyme, DTNB colorimetric CoA detection; at 12.5 µM; active compounds read high", "values": [{"smiles": "CCC(CO)(C(=O)OC1CN2CCC1CC2)c1ccccc1", "note": "(stereo unspecified)", "inhibition": "inactive: -2.9%"}, {"smiles": "COc1cccc(C(c2nnnn2C2CCCC2)N2CCC(n3c(=O)[nH]c4ccccc43)CC2)c1OC", "note": "(stereo unspecified)", "inhibition": "inactive: 2.12%"}, {"smiles": "COc1cc(OC)cc(C(=O)NCC2(N3CCOCC3)CCCCC2)c1", "inhibition": "inactive: 0.934%"}, {"smiles": "COc1cccc(C(=O)N(c2cc(C)cc(C)c2)C2CCN(C(=O)OC(C)(C)C)CC2)c1", "inhibition": "inactive: 3.88%"}, {"smiles": "CN1CCC(Nc2ccc(Cl)cc2)CC1", "inhibition": "inactive: 1.46%"}, {"smiles": "CN1CCC(Nc2ccc(F)c(Cl)c2)CC1", "inhibition": "inactive: -11.3%"}, {"smiles": "CCOc1ncccc1C(=O)NCC1(N2CCOCC2)CCCCC1", "inhibition": "inactive: -5.28%"}, {"smiles": "O=c1[nH]c2ccccc2n1C1CCN(C(c2cc3ccccc3o2)c2nnnn2C2CCCC2)CC1", "note": "(stereo unspecified)", "inhibition": "inactive: 3.3%"}, {"smiles": "CCCOc1ccc(C(=O)NCC2(N(C)C)CCCCC2)cc1", "inhibition": "inactive: 2.45%"}, {"smiles": "O=C(O)C1(Nc2ccccc2)CCN(Cc2ccccc2)CC1", "inhibition": "inactive: -5.9%"}, {"smiles": "COc1ccc(C(c2nnnn2C2CCCCC2)N2CCC(n3c(=O)[nH]c4ccccc43)CC2)cc1", "note": "(stereo unspecified)", "inhibition": "inactive: 2.92%"}, {"smiles": "CC(C)(C)n1nnnc1C(c1ccnc2ccccc12)N1CCC(n2c(=O)[nH]c3ccccc32)CC1", "note": "(stereo unspecified)", "inhibition": "inactive: 1.47%"}, {"smiles": "Cc1ccccc1NC1(C#N)CCN(Cc2ccccc2)CC1", "inhibition": "inactive: -0.13%"}, {"smiles": "Cn1c(=O)[nH]cc(N(CCCl)CCCl)c1=O", "inhibition": "inactive: 2.71%"}, {"smiles": "O=C(NCC1(N2CCCCC2)CCCCC1)c1ccco1", "inhibition": "inactive: 2.43%"}, {"smiles": "COc1cc(OC)cc(C(=O)NCC2(N3CCCCC3)CCCCC2)c1", "inhibition": "inactive: -0.534%"}, {"smiles": "O=c1[nH]c2ccccc2n1C1CCN(C(c2ccnc3ccccc23)c2nnnn2C2CCCCC2)CC1", "note": "(stereo unspecified)", "inhibition": "inactive: -4.61%"}, {"smiles": "CCC(c1nnnn1C1CCCCC1)N1CCC(n2c(=O)[nH]c3ccccc32)CC1", "note": "(stereo unspecified)", "inhibition": "inactive: 0.588%"}, {"smiles": "COc1cccc(C(c2nnnn2C2CCCCC2)N2CCC(n3c(=O)[nH]c4ccccc43)CC2)c1OC", "note": "(stereo unspecified)", "inhibition": "inactive: -0.975%"}, {"smiles": "CC(=O)N(c1ccccc1)C1CCNCC1", "inhibition": "inactive: 4.95%"}, {"smiles": "Cc1ccc(NC2(C#N)CCN(Cc3ccccc3)CC2)cc1", "inhibition": "inactive: -0.206%"}, {"smiles": "Fc1ccccc1NC1CCN(Cc2ccccc2)CC1", "inhibition": "inactive: -1.17%"}, {"smiles": "Cc1ccc(C(=O)NCC2(N3CCCCC3)CCCCC2)o1", "inhibition": "inactive: 6.52%"}, {"smiles": "O=c1[nH]c2ccccc2n1C1CCN(C(c2ccccc2)c2nnnn2C2CCCC2)CC1", "note": "(stereo unspecified)", "inhibition": "inactive: 1.33%"}, {"smiles": "CCCN1CCC(Nc2cc(OC)cc(OC)c2)CC1", "inhibition": "inactive: -14.6%"}, {"smiles": "c1ccc(CN2CCC(Nc3ccccc3)CC2)cc1", "inhibition": "inactive: 0.513%"}, {"smiles": "CN(C)C1(CNC(=O)c2cccc(C#N)c2)CCCCC1", "inhibition": "inactive: -2.87%"}, {"smiles": "CC(C)(C)n1nnnc1C(c1cccc2ccccc12)N1CCC(n2c(=O)[nH]c3ccccc32)CC1", "note": "(stereo unspecified)", "inhibition": "inactive: 5.07%"}, {"smiles": "CC(C)(C)OC(=O)N1CCC(N(C(=O)c2ccccc2)c2ccc(Cl)cc2)CC1", "inhibition": "inactive: 4.63%"}, {"smiles": "N#Cc1ccc(C(=O)NCC2(N3CCCCC3)CCCCC2)cc1", "inhibition": "inactive: -6.66%"}, {"smiles": "N/C(=N\\O)c1c(N)no[n+]1[O-]", "inhibition": "inactive: 0.725%"}, {"smiles": "CCOC(=O)N1CCC(Nc2ccc(C)cc2)CC1", "inhibition": "inactive: -0.287%"}, {"smiles": "COc1cccc(C(c2nnnn2C(C)(C)C)N2CCC(n3c(=O)[nH]c4ccccc43)CC2)c1OC", "note": "(stereo unspecified)", "inhibition": "inactive: -1.75%"}, {"smiles": "CCCCn1nnnc1C(c1cccc(OC)c1OC)N1CCC(n2c(=O)[nH]c3ccccc32)CC1", "note": "(stereo unspecified)", "inhibition": "inactive: -1.62%"}, {"smiles": "O=c1[nH]c2ccccc2n1C1CCN(C(c2cccs2)c2nnnn2C2CCCC2)CC1", "note": "(stereo unspecified)", "inhibition": "inactive: 0.524%"}, {"smiles": "O=C(NCC1(N2CCOCC2)CCCCC1)c1cc(Br)ccc1Cl", "inhibition": "inactive: 3.26%"}, {"smiles": "COc1cc(C(=O)NCC2(N3CCOCC3)CCCCC2)cc(OC)c1C", "inhibition": "inactive: -7.22%"}, {"smiles": "CCCCn1nnnc1C(c1ccccc1)N1CCC(n2c(=O)[nH]c3ccccc32)CC1", "note": "(stereo unspecified)", "inhibition": "inactive: 5.86%"}, {"smiles": "O=c1[nH]c2ccccc2n1C1CCN(C(c2ccnc3ccccc23)c2nnnn2C2CCCC2)CC1", "note": "(stereo unspecified)", "inhibition": "inactive: 5.18%"}, {"smiles": "O=c1[nH]c2ccccc2n1C1CCN(C(c2cccs2)c2nnnn2C2CCCCC2)CC1", "note": "(stereo unspecified)", "inhibition": "inactive: 1.19%"}, {"smiles": "CN1CCC(Nc2cccc(F)c2)CC1", "inhibition": "inactive: -1.09%"}, {"smiles": "O=C(NCC1(N2CCCCC2)CCCCC1)c1cncc(Br)c1", "inhibition": "inactive: 2.19%"}, {"smiles": "CCCOc1ccc(C(=O)NCC2(N(C)C)CCCCC2)cc1OC", "inhibition": "inactive: 4.32%"}, {"smiles": "Cc1ccc(C(=O)NCC2(N(C)C)CCCCC2)o1", "inhibition": "inactive: 1.55%"}, {"smiles": "COc1ccc(C(c2nnnn2C2CCCC2)N2CCC(n3c(=O)[nH]c4ccccc43)CC2)cc1", "note": "(stereo unspecified)", "inhibition": "inactive: -4.02%"}, {"smiles": "CN(C)c1cccc(C(=O)NCC2(N3CCCCC3)CCCCC2)c1", "inhibition": "inactive: 0.417%"}, {"smiles": "CCCCn1nnnc1C(c1ccccc1OC(F)(F)F)N1CCC(n2c(=O)[nH]c3ccccc32)CC1", "note": "(stereo unspecified)", "inhibition": "inactive: 4.94%"}, {"smiles": "CCCCn1nnnc1C(c1ccnc2ccccc12)N1CCC(n2c(=O)[nH]c3ccccc32)CC1", "note": "(stereo unspecified)", "inhibition": "inactive: 4.48%"}, {"smiles": "O=C(NCC1(N2CCOCC2)CCCCC1)c1cc(F)c(F)cc1Cl", "inhibition": "inactive: -0.175%"}, {"smiles": "CCC(c1nnnn1C(C)(C)C)N1CCC(n2c(=O)[nH]c3ccccc32)CC1", "note": "(stereo unspecified)", "inhibition": "inactive: 0.325%"}, {"smiles": "COc1cc(OC)c(C(=O)NCC2(N(C)C)CCCCC2)cc1OC", "inhibition": "inactive: -1.04%"}, {"smiles": "O=C(NCC1(N2CCCCC2)CCCCC1)c1cccc(C(F)(F)F)c1", "inhibition": "inactive: 0.291%"}, {"smiles": "CN1CCN(CCOC(=O)C(O)(c2ccccc2)c2ccccc2)CC1", "inhibition": "inactive: 4.38%"}, {"smiles": "CCCCn1nnnc1C(c1cccc2ccccc12)N1CCC(n2c(=O)[nH]c3ccccc32)CC1", "note": "(stereo unspecified)", "inhibition": "inactive: -5.89%"}, {"smiles": "COc1cc(C(=O)NCC2(N3CCCCC3)CCCCC2)ccc1OC(F)F", "inhibition": "inactive: 9.12%"}, {"smiles": "O=C(NCC1(N2CCOCC2)CCCCC1)c1cc(=O)[nH]c2ccccc12", "inhibition": "inactive: -0.875%"}, {"smiles": "O=C(NCC1(N2CCCCC2)CCCCC1)c1ccc(OC(F)F)cc1", "inhibition": "inactive: 3.27%"}, {"smiles": "CC(C)(C)n1nnnc1C(c1ccccc1OC(F)(F)F)N1CCC(n2c(=O)[nH]c3ccccc32)CC1", "note": "(stereo unspecified)", "inhibition": "inactive: 3.9%"}, {"smiles": "CSc1ccc(C(=O)NCC2(N3CCOCC3)CCCCC2)cc1", "inhibition": "inactive: -0.382%"}, {"smiles": "O=c1[nH]c2ccccc2n1C1CCN(C(c2ccccc2OC(F)(F)F)c2nnnn2C2CCCC2)CC1", "note": "(stereo unspecified)", "inhibition": "inactive: 3.78%"}, {"smiles": "N#CC1(Nc2ccccc2)CCN(CCc2ccccc2)CC1", "inhibition": "inactive: -2.93%"}, {"smiles": "CCN1CCC(Nc2ccc(Cl)cc2)CC1", "inhibition": "inactive: -6.29%"}, {"smiles": "O=c1[nH]c2ccccc2n1C1CCN(C(c2ccccc2)c2nnnn2C2CCCCC2)CC1", "note": "(stereo unspecified)", "inhibition": "inactive: 4.08%"}, {"smiles": "O=c1[nH]c2ccccc2n1C1CCN(C(c2cccc3ccccc23)c2nnnn2C2CCCC2)CC1", "note": "(stereo unspecified)", "inhibition": "inactive: -5.1%"}, {"smiles": "CCOC(=O)N1CCC(Nc2cccc(C)c2)CC1", "inhibition": "inactive: 5.66%"}, {"smiles": "COc1cc(C(=O)NCC2(N(C)C)CCCCC2)ccc1OC(F)F", "inhibition": "inactive: -4%"}, {"smiles": "O=C1CCN(Cc2ccccc2)CC1", "inhibition": "inactive: -6.03%"}, {"smiles": "CC(C)(C)n1nnnc1C(c1ccccc1)N1CCC(n2c(=O)[nH]c3ccccc32)CC1", "note": "(stereo unspecified)", "inhibition": "inactive: 6.06%"}, {"smiles": "COc1ccc(NC2CCN(CCc3ccccc3)CC2)c(OC)c1", "inhibition": "inactive: -1.23%"}, {"smiles": "CCOC(=O)N1CCC(Nc2ccc(F)cc2)CC1", "inhibition": "inactive: 4.79%"}, {"smiles": "O=P1(N(CCCl)CCCl)SCCCS1", "inhibition": "inactive: -5.85%"}, {"smiles": "CCCCn1nnnc1C(c1cc2ccccc2o1)N1CCC(n2c(=O)[nH]c3ccccc32)CC1", "note": "(stereo unspecified)", "inhibition": "inactive: -5.71%"}, {"smiles": "CCCCOc1ccc(C(=O)NCC2(N3CCOCC3)CCCCC2)cc1", "inhibition": "inactive: 3.6%"}, {"smiles": "O=C(NCC1(N2CCCCC2)CCCCC1)c1ccc(F)cc1", "inhibition": "inactive: 2.76%"}, {"smiles": "Cc1cc(C)cc(N(C(=O)c2ccccc2)C2CCN(C(=O)OC(C)(C)C)CC2)c1", "inhibition": "inactive: -8.32%"}, {"smiles": "O=C(NCC1(N2CCCCC2)CCCCC1)c1ccc(Cl)nc1", "inhibition": "inactive: 2.11%"}, {"smiles": "O=c1[nH]c2ccccc2n1C1CCN(C(c2ccccc2OC(F)(F)F)c2nnnn2C2CCCCC2)CC1", "note": "(stereo unspecified)", "inhibition": "inactive: 1.36%"}, {"smiles": "CCCCn1nnnc1C(c1ccc(OC)cc1)N1CCC(n2c(=O)[nH]c3ccccc32)CC1", "note": "(stereo unspecified)", "inhibition": "inactive: -1.34%"}, {"smiles": "CCOC(=O)N1CCC(Nc2ccc(OC)cc2)CC1", "inhibition": "inactive: 5.8%"}, {"smiles": "O=C(NCC1(N2CCCCC2)CCCCC1)c1ccc(Cl)s1", "inhibition": "inactive: 1.4%"}, {"smiles": "O=C(OC1CN2CCC1CC2)C1c2ccccc2Oc2ccccc21", "note": "(stereo unspecified)", "inhibition": "inactive: 4.62%"}, {"smiles": "O=c1[nH]c2ccccc2n1C1CCN(C(c2cc3ccccc3o2)c2nnnn2C2CCCCC2)CC1", "note": "(stereo unspecified)", "inhibition": "inactive: 0.772%"}, {"smiles": "CCCCn1nnnc1C(CC)N1CCC(n2c(=O)[nH]c3ccccc32)CC1", "note": "(stereo unspecified)", "inhibition": "inactive: 3.79%"}, {"smiles": "O=C(NCC1(N2CCCCC2)CCCCC1)c1cccs1", "inhibition": "inactive: 8.19%"}, {"smiles": "CCCCn1nnnc1C(c1cccs1)N1CCC(n2c(=O)[nH]c3ccccc32)CC1", "note": "(stereo unspecified)", "inhibition": "inactive: 0.832%"}, {"smiles": "O=C(NCC1(N2CCCCC2)CCCCC1)c1ccc(=O)[nH]c1", "inhibition": "inactive: 4.05%"}, {"smiles": "CC(C)(C)OC(=O)N1CCC(N(C(=O)c2ccccc2)c2ccc(F)cc2)CC1", "inhibition": "inactive: -5.48%"}, {"smiles": "CCC(c1nnnn1C1CCCC1)N1CCC(n2c(=O)[nH]c3ccccc32)CC1", "note": "(stereo unspecified)", "inhibition": "inactive: -2.7%"}, {"smiles": "COc1ccc(C(=O)NCC2(N3CCCCC3)CCCCC2)cc1", "inhibition": "inactive: 4.56%"}, {"smiles": "Cc1cccc(NC2(C#N)CCN(Cc3ccccc3)CC2)c1", "inhibition": "inactive: 4.55%"}, {"smiles": "CSc1ccccc1C(=O)NCC1(N2CCCCC2)CCCCC1", "inhibition": "inactive: -3.16%"}]}]}
